Results taken from article PMC2752837.

How the values were obtained:
Test in all cases: purified protein
Details in all cases: 50 mM CHES pH 9.5, 10 mM DTT, 37 °C
[1] = test system: N=C(N)NCCC[C@H](N)C(=O)NO
N=C(N)NCCC[C@H](N)C(=O)O = test system: N=C(N)NCCC[C@H](N)C(=O)O
N=C(N)NCCCCN = test system: N=C(N)NCCCCN
[2] = test system: CCOC(=O)[C@H](CCCNC(=N)N)NC(=O)c1ccccc1
[3] = test system: N=C(N)NCCC[C@@H](N)C(=O)O

In the case of “truncated PAD (peptidylarginine deiminase, 43-amino acid N-terminal deletion) (Porphyromonas gingivalis W83)”, the kcat/Km [1] is reported as 22 M⁻¹ s⁻¹, the Km (N=C(N)NCCC[C@H](N)C(=O)O) is reported as “(1.2 ± 0.5)×10^3 µM” and the kcat (N=C(N)NCCC[C@H](N)C(=O)O) is reported as 0.22 s⁻¹. For the same substance, the kcat/Km (N=C(N)NCCC[C@H](N)C(=O)O) was 190 M⁻¹ s⁻¹, the Km (N=C(N)NCCCCN) was “(31 ± 1)×10^3 µM” and the kcat (N=C(N)NCCCCN) was 0.007 s⁻¹. The kcat/Km (N=C(N)NCCCCN) was 0.23 M⁻¹ s⁻¹, the kcat [2] was 0.019 s⁻¹ and the Km [3] was “(1.9 ± 0.5)×10^3 µM”. The kcat [3] was 0.058 s⁻¹ and the kcat/Km [3] was 31 M⁻¹ s⁻¹.
